Test results: patent US11285125B2, “Oxidative retinal diseases” (priority 2011, dated 2022)

System: WT (W303) yeast
Conditions: 200 μM, 4 h incubation

SMILES | incorporation of fatty acid by yeast
CC/C=C\C/C=C\C/C=C\CCCCCCCC(=O)O [linolenic acid, cis,cis,cis-9,12,15-Octadecatrienoic acid, reference compound] | avidly incorporate
[2H]C([2H])(/C=C\CC)/C=C\C([2H])([2H])/C=C\CCCCCCCC(=O)O [D4-ALA, 11,11,14,14-Tetradeutero-cis,cis,cis-9,12,15-Octadecatrienoic acid] | avidly incorporate
